Source: article PMC10357944 (RSC Medicinal Chemistry, 2023)

Tested on: Leishmania (L.) infantum intracellular amastigotes
Assay: Anti-L. (L.) infantum activity in vitro, intracellular amastigotes in peritoneal macrophages, infection index
Assay type: cell-based
Conditions: selectivity index: CC50 against NCTC cells/IC50 against amastigotes
Description: The synthesized compounds were evaluated for their anti-L. (L.) infantum activity on intracellular amastigotes following 96 h treatment, with standard drug miltefosine used as a control. […] Leishmania (L.) infantum (MHOM/BR/1972/LD) amastigotes were obtained by differential centrifugation from golden hamsters (Mesocricetus auratus) spleens with 60–70 days of infection and the number of parasites was determined by the Stauber method.[18] Murine conjunctive fibroblasts NCTC clone 929 (ATCC) were maintained in RPMI-1640 medium supplemented with 10% FBS at pH 7.2 and 37 °C in a humidified incubator with 5% CO2. Peritoneal macrophages were by obtained by washing the peritoneal cavity of BALB/c mice with RPMI-1640 medium supplemented with 10% FBS, pH 7.2 and maintained at 37 °C in a humidified incubator with 5% CO2. Peritoneal macrophages (1 × 10^5/well) were added in 16-well slide chambers (NUNC) and incubated overnight at 37 °C with 5% CO2. Subsequently, the cells were infected with L. (L.) infantum amastigotes (10 : 1 amastigotes/macrophage) for 24 h, treated with compounds serially diluted (6.25 to 50 μM) and incubated for 96 h at 37 °C with 5% CO2. Miltefosine was used as standard drug and untreated cells as a negative control. Slides were fixed with methanol, stained with Giemsa and observed under a light microscope.[19] […] The determination of CC50 and IC50 values was performed by sigmoid dose–response curves using the Graph Pad Prism 5 software. The samples were tested in duplicate and the assays were reproduced at least twice.

| Structure (SMILES) | SI |
| --- | --- |
| C=CCc1cc(OC)c(OCc2ccc(OC)cc2)c(Oc2ccccc2OC)c1 [Compound 9] | >8.3 |
| CCCc1ccc(Oc2cc(CN3CCOCC3)cc(OC)c2OCc2ccc(OC)cc2)cc1 [Compound 34] | >13.1 |
| CCCc1ccc(Oc2cc(CN3CCOCC3)cc(OC)c2OCc2ccc(OC)cc2)c(OC)c1 [Compound 28] | >12.2 |
| CCCc1ccc(Oc2cc(CN3CCOCC3)cc(OC)c2OCc2cc(OC)c(OC)c(OC)c2)c(OC)c1 [Compound 30] | >7.6 |
| CCCc1ccc(Oc2cc(CN3CCOCC3)cc(OC)c2OCc2ccc(C(F)(F)F)cc2)c(OC)c1 [Compound 29] | >15.1 |
| C=CCc1cc(OC)c(OCc2ccc(OC)cc2)c(Oc2ccc(CN3CCOCC3)cc2OC)c1 [Compound 24] | > 20.6 |
| C=CCc1cc(OC)c(OC(C)=O)c(Oc2ccccc2OC)c1 [Compound 11] | >6.1 |
